{
  "source": "ChEMBL document CHEMBL4513135",
  "about": "“CO-ADD screening of IQOG CSIS (Spain) compounds”",
  "key": {"Klebsiella pneumoniae": {"system": "Klebsiella pneumoniae", "conditions": "ATCC 700603, Concentration 32.0 ug.mL-1"}, "Cryptococcus neoformans": {"system": "Cryptococcus neoformans", "conditions": "ATCC 208821, Concentration 32.0 ug.mL-1"}, "Candida albicans": {"system": "Candida albicans", "conditions": "ATCC 90028, Concentration 32.0 ug.mL-1"}},
  "data": [
    {"smiles": "COc1ccc(C=C(C#N)C#N)cc1", "values": [
      {"measurement": "inhibition", "setting": "Klebsiella pneumoniae", "value": 4.4, "unit": "%"},
      {"measurement": "inhibition", "setting": "Cryptococcus neoformans", "value": -2.14, "unit": "%"},
      {"measurement": "inhibition", "setting": "Candida albicans", "value": -0.5, "unit": "%"}
    ]}
  ]
}
